Measurements reported in PubChem BioAssay AID504761 (Drosophila RNAi Screening Center, 2011).

- Assay: 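Genome-wide fly cell screen for genes dengue virus requires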 (primary screen)
- System: D.Mel-2 cells from Drosophila
- Reagents: long dsRNA against Drosophila genes
- Challenge: infection with dengue virus type 2; dose and infection time not stated
- Measurement: 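Per well on two replicate plates, imaging gave the percent of cells positive for viral envelope protein, ranked by infection, and a nuclear count of cells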
- Scale: infection score: higher = more virus-infected cells
- Rule for the call: 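Low infection ranks in the two replicates (chance level up to 0.065) followed by a retest with a 1.5-fold or larger significant decrease, p below 0.05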
- Meaning of the calls: active = confirmed: knock-down lowers infection; inactive = not picked or not confirmed
In all, the deposit lists about 22,000 reagents; shown is an unselected part of those that have a named target and a result. Over the whole deposit, 116 (0.52%) were called active. 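Calls depend on retest data that are not deposited; infection was ranked per plate without normalising between plates; the unit of the infection score is not given.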 Not all columns of the deposit are shown. The record does not give: the amount of reagent, the time to read-out.

Depletion of CG6984 [DRSC07013] came out at: infection score, replicate 1 = 5.49; inactive. Knock-down of CG14864 [DRSC14987] resulted in: infection score, replicate 1 = 3.27; inactive. vls (valois) [DRSC02101] showed infection score, replicate 1 = 22.2; inactive. With knock-down of vls (valois) [DRSC27088], the screen gave infection score, replicate 1 = 8.07; inactive. Against CG11322 [DRSC02142], the values are infection score, replicate 1 = 2.87; inactive. After knock-down of CG11322 [DRSC24585], the record shows infection score, replicate 1 = 3.35; inactive.

Against CG17019 [DRSC06642], the entry reads infection score, replicate 1 = 6.93; inactive. Against glob2 (globin 2) [DRSC12560], the entry reads infection score, replicate 1 = 8.65; inactive. With knock-down of Trxr1 (Thioredoxin reductase 1) [DRSC18668], the screen gave infection score, replicate 1 = 4.53; inactive. Depletion of Trxr1 (Thioredoxin reductase 1) [DRSC22293] came out at: infection score, replicate 1 = 4.28; inactive. Knock-down of Trxr1 (Thioredoxin reductase 1) [DRSC25749] came out at: infection score, replicate 1 = 7.5; inactive. For odd (odd skipped) [DRSC23024], the entry reads infection score, replicate 1 = 2.38; inactive.

With knock-down of CG12486 (retired record) [DRSC09888], the record shows infection score, replicate 1 = 1.18; inactive. CG12486 (retired record) [DRSC29802] scored infection score, replicate 1 = 7.82; inactive. Silencing of CG18586 [DRSC10325] gave: infection score, replicate 1 = 0.3; inactive. Against maca [DRSC15738] the deposit lists infection score, replicate 1 = 4.68; inactive. Against CG10598 [DRSC19358], the values are infection score, replicate 1 = 10.1; inactive. Silencing of CG10598 [DRSC25200] came out at: infection score, replicate 1 = 1.65; inactive.

With knock-down of Nup93-2 (Nucleoporin 93kD-2) [DRSC16221], the record shows infection score, replicate 1 = 14.8; inactive. For CG10918 [DRSC20472], the entry reads infection score, replicate 1 = 1.24; inactive. With knock-down of CG10918 [DRSC24162] the results were infection score, replicate 1 = 1.09; active.

Part of the list above, reformatted:
CG12486 (retired record) [DRSC09888]
- infection score, replicate 1: 1.18
- activity call: inactive

CG12486 (retired record) [DRSC29802]
- infection score, replicate 1: 7.82
- activity call: inactive
